Anti-infective test results gathered from many reports (values: NIAID ChemDB through PubChem).

Common to all: tests in culture; species: HIV-1; measure: inhibition

Neighbouring rows are from separate reports. a–b is a range or a potency band. Percent inhibition refers to the dose given; in toxicity tests it is the harm to the cells. An empty or dashed field is not shown.

compound,setting,strain or isolate,method,dose,cells,value
Fc1cccc(Cl)c1CCNC(=S)Nc1nccs1,-,-,cytopathic effect / XTT,10 µg/mL,MT-4,52–100%
O=C(C(=O)N1CCN(C(=O)c2ccco2)CC1)c1c[nH]c2c(F)ccc(F)c12,-,-,luciferase,10 µM,HeLa + HELA CD4+/CCR5,>98%
Nc1ccn([C@H]2CC[C@@H](CO)O2)c(=O)n1,-,IIIB,antigen,0.1 µM,MT-4,70%
CC(C)[C@H](NC(=O)[C@H](CO)NC(=O)[C@@H](N)CS)C(=O)N[C@H](C(=O)N[C@@H](CS)C(=O)NCC(=O)O)[C@@H](C)O,-,p13,p24,0.3 µM,PBMC(PHA STIM.) + PBMC,87%
O=C(O)CCCCCCCCCCCCn1ncnn1,-,-,cytopathic effect,10 µg/mL,CEM,16%
Cc1c2ccnc(Cl)c2cc2c3cn(C)ccc-3nc12,-,-,p24 / ELISA,0.5 µM,PBMC,0%
C[C@H]1[C@H](O)[C@@H](C)/C=C/C=C/C=C/C=C/C=C/C=C/C=C/[C@H](O[C@@H]2O[C@H](C)[C@@H](O)[C@H](N)[C@@H]2O)C[C@@H]2O[C@](O)(C[C@@H](O)C[C@@H](O)CC[C@H](O)[C@@H](O)C[C@@H](O)CC(=O)O[C@H]1C)C[C@H](O)[C@H]2C(=O)O,-,IIIB,p24 / antigen,0.1 µg/mL,H9,29%
CC(=O)CCCCCCCCCCCC(=O)O,-,-,cytopathic effect,10 µg/mL,CEM,40%
O=C(NCCc1ccccc1)Nc1ccc(F)cc1,-,-,cytopathic effect / XTT,1 µg/mL,MT-4,5%
CC(C)[C@H](NC(=O)[C@H](Cc1ccccc1)C[C@H](O)[C@H](Cc1ccccc1)NC(=O)OC(C)(C)C)C(=O)N[C@@H](Cc1ccccc1)C(=O)N1CCOCC1,-,AMS316-23,RT activity,0.1 µM,PBL,99.5%
O=C(NCCc1ccccc1)Nc1nc2ccc(Cl)cc2s1,-,-,cytopathic effect / XTT,100 µg/mL,MT-4,49–68%
O=C(C(=O)N1CCN(C(=O)c2cc(Cl)ccc2S)CC1)c1c[nH]c2cccc(F)c12,-,-,luciferase,10 µM,HeLa + HELA CD4+/CCR5,>98%
Cc1cn([C@H]2C[C@H](N=[N+]=[N-])[C@@H](COP(=O)(O)OCCO[C@H]3O[C@H](CO)[C@@H](O)[C@H](O)[C@@H]3O)O2)c(=O)[nH]c1=O,22 d,LAV-Bru,RT activity,0.2 µM,CEM,0%
Nc1ncnc2c1ncn2COCCOP(=O)([O-])O[C@@H]1C[C@@H](COP(=O)([O-])O[C@@H]2C[C@@H](COP(=O)([O-])O[C@@H]3C[C@@H](CO)O[C@H]3n3cnc4c(N)[n+](Cc5ccccc5)cnc43)O[C@H]2n2cnc3c(N)ncnc32)O[C@H]1n1cnc2c(N)ncnc21,-,-,syncytia,1 µM,SupT1 + Sup-T1,59%
Cc1ccc(S)c(C(=O)N2CCN(C(=O)C(=O)c3c[nH]c4cccc(F)c34)CC2)c1,-,-,luciferase,10 µM,HeLa + HELA CD4+/CCR5,>98%
O=C(NCc1ccc(F)cc1)c1ncc2cccnc2c1O,10% FBS,-,p24,1.25 µM,MT-4,>95%
COc1cccc2[nH]cc(C(=O)C(=O)N3CCN(C(=O)c4ccccc4)CC3)c12,-,-,luciferase,10 µM,HeLa + HELA CD4+/CCR5,>98%
CCCCCCCCCCCCCCCCOP(=O)(OC[C@H]1OC(O)[C@@H](O)[C@@H](O)[C@@H]1O)OC[C@H]1O[C@@H](n2cc(C)c(=O)[nH]c2=O)C[C@@H]1N=[N+]=[N-],22 d,LAV-Bru,RT activity,0.2 µM,CEM,0%
CC1(C)[C@@H](O[C@H]2O[C@H](C(=O)O)[C@@H](O)[C@H](O)[C@H]2O[C@@H]2O[C@H](C(=O)O)[C@@H](O)[C@H](O)[C@H]2O)CC[C@]2(C)[C@H]3C(=O)C=C4[C@@H]5C[C@@](C)(C(=O)O)CC[C@]5(C)CC[C@@]4(C)[C@]3(C)CC[C@@H]12,3 d,IIIB,RT activity,1200 µM,MOLT-4,0%
COc1ccc(CCNC(=S)Nc2nccs2)cc1OC,-,-,cytopathic effect / XTT,100 µg/mL,MT-4,0%
Cc1ccc(-c2ccc3c(c2)C=C(C(=O)Nc2ccc(C[N+](C)(C)C4CCOCC4)cc2)CCC3)cc1,-,PCP1 CLADE C,p24,1 µM,PBMC,10.1%
O=C(CCCCCCCCCCC(=O)Nc1cc(S(=O)(=O)O)cc2cc(S(=O)(=O)O)cc(O)c12)Nc1cc(S(=O)(=O)O)cc2cc(S(=O)(=O)O)cc(O)c12,-,-,p24,2 µg/mL,H9,0%
C[C@H]1[C@H](O)[C@@H](C)/C=C/C=C/C=C/C=C/C=C/C=C/C=C/[C@H](O[C@@H]2O[C@H](C)[C@@H](O)[C@H](N)[C@@H]2O)C[C@@H]2O[C@](O)(C[C@@H](O)C[C@@H](O)CC[C@H](O)[C@@H](O)C[C@@H](O)CC(=O)O[C@H]1C)C[C@H](O)[C@H]2C(=O)O,-,G3 CLADE G R5 (NSI),p24 / RT activity,1.5 µM,PBMC,90%
NCCSSCCN,-,BaL,p24,200 µM,Macrophage,100%
N=C1Sc2ccccc2C2=NCCCN12,-,92UG001,MTS,1.89 µM,PBMC,90%
CC(=O)N1C(=O)[C@@H](Cc2ccccc2)NC1=S,-,-,cytopathic effect / XTT,10 µg/mL,MT-4,26%
N=C1Sc2ccccc2C2=NCCCN12,-,93BR021,β-galactosidase,4.26 µM,TZM-bl,90%
CN1C(=O)N(C)C(=O)C2(C1=O)[C@@H](c1ccco1)CC(=O)C[C@H]2[C@H]1COC(C)(C)O1,-,NL4-3,MTT,10 µM,SupT1,56%
Nc1ncnc2c1ncn2COCCOP(=O)([O-])O[C@@H]1[C@H](O)[C@@H](COP(=O)([O-])O[C@@H]2[C@H](O)[C@@H](COP(=O)([O-])O[C@@H]3[C@H](O)[C@@H](CO)O[C@H]3n3cnc4c(NCc5ccccc5)ncnc43)O[C@H]2n2cnc3c(N)ncnc32)O[C@H]1n1cnc2c(N)ncnc21,-,-,p24,100 µM,SupT1 + Sup-T1,87%
CC(C)(C)OC(=O)Nc1ccccc1C(=O)N1CCN(C(=O)C(=O)c2c[nH]c3cccc(F)c23)CC1,-,-,luciferase,10 µM,HeLa + HELA CD4+/CCR5,51%
Nc1ccc(S(=O)(=O)O)c2cccc(O)c12,-,-,p24,10 µg/mL,H9,17%
COC(=O)CCCCCCCCCCC(=O)O,-,-,cytopathic effect,10 µg/mL,CEM,34%
O=P(O)(O)OP(=O)(O)OP(=O)(O)O,-,IIIB,p24,100 µg/mL,H9,0%
O=c1oc2cc(O)cc(O)c2c(O)c1-c1coc2c1c(=O)oc1cc(O)cc(O)c12,-,IIIB,MTT,0.001 µM,MT-4,0%
O=C(NCCc1ccccc1)NCc1ccoc1,-,-,cytopathic effect / XTT,1 µg/mL,MT-4,10%
O=C(O)CCCCCCCCCCCn1cnnc1,-,RF,cytopathic effect,10 µg/mL,CEM,66%
CN1C(=O)[C@@H](Cc2ccccc2)NC1=S,-,-,RT activity,100 µg/mL,MT-4,94%
Nc1ncnc2c1ncn2COCCOP(=O)(O)O[C@@H]1C[C@@H](COP(=O)(O)O[C@@H]2C[C@@H](COP(=O)(O)O[C@@H]3C[C@@H](CO)O[C@H]3n3cnc4c(NCc5ccccc5)ncnc43)O[C@H]2n2cnc3c(N)ncnc32)O[C@H]1n1cnc2c(N)ncnc21,-,-,RT activity,100 µM,SupT1 + Sup-T1,60%
CC(=O)CCC(=O)NCCCOCCOCCCNC(=O)CNC(=O)[C@H](CS)NC(=O)[C@@H](NC(=O)[C@@H](NC(=O)[C@H](CO)NC(=O)[C@@H](N)CS)C(C)C)[C@@H](C)O,-,BaL,p24,0.132 µM,PBMC(PHA STIM.) + PBMC,32%
O=C(O)CCCCCCCCCCCCn1nccn1,-,-,cytopathic effect,1 µg/mL,CEM,12%
COc1cccc2c(C(=O)C(=O)N3CCN(C(=O)c4ccccn4)C[C@H]3C)c[nH]c12,-,-,luciferase,10 µM,HeLa + HELA CD4+/CCR5,>98%
Nc1ccn([C@H]2C=C[C@@H](CO)O2)c(=O)n1,-,LAV,cytopathic effect / trypan blue,0.5 µM,MT-2,10%
COc1ccc(F)c2c(C(=O)C(=O)N3CCN(C(=O)c4cccc(N)c4)C[C@H]3C)c[nH]c12,-,-,luciferase,10 µM,HeLa + HELA CD4+/CCR5,>98%
O=C(NCCc1ccccc1)Nc1ccccc1,-,-,cytopathic effect / XTT,100 µg/mL,MT-4,0%

A second listing of 3 rows from above:

compound | setting | strain or isolate | method | dose | cells | value
CC1(C)[C@@H](O[C@H]2O[C@H](C(=O)O)[C@@H](O)[C@H](O)[C@H]2O[C@@H]2O[C@H](C(=O)O)[C@@H](O)[C@H](O)[C@H]2O)CC[C@]2(C)[C@H]3C(=O)C=C4[C@@H]5C[C@@](C)(C(=O)O)CC[C@]5(C)CC[C@@]4(C)[C@]3(C)CC[C@@H]12 | 3 d | IIIB | RT activity | 1200 µM | MOLT-4 | 0%
O=C(C(=O)N1CCN(C(=O)c2ccco2)CC1)c1c[nH]c2c(F)ccc(F)c12 | - | - | luciferase | 10 µM | HeLa + HELA CD4+/CCR5 | >98%
O=C(O)CCCCCCCCCCCn1cnnc1 | - | RF | cytopathic effect | 10 µg/mL | CEM | 66%